Test results reported in article PMC3656124, “DNA Topoisomerase II Is Involved in Regulation of Cyst Wall Protein Genes and Differentiation in Giardia lamblia” (PLoS Neglected Tropical Diseases, 2013).
For at least one entry, the source does not settle the construct or the ends of the probe. At least one verdict rests on a figure or table, not on a statement of the authors. Tags and fusion partners may be left off the protein sequences shown.

Target: T1, Topo IIC (UniProt E2RU90)
T1 sequence (looked up, limits assumed): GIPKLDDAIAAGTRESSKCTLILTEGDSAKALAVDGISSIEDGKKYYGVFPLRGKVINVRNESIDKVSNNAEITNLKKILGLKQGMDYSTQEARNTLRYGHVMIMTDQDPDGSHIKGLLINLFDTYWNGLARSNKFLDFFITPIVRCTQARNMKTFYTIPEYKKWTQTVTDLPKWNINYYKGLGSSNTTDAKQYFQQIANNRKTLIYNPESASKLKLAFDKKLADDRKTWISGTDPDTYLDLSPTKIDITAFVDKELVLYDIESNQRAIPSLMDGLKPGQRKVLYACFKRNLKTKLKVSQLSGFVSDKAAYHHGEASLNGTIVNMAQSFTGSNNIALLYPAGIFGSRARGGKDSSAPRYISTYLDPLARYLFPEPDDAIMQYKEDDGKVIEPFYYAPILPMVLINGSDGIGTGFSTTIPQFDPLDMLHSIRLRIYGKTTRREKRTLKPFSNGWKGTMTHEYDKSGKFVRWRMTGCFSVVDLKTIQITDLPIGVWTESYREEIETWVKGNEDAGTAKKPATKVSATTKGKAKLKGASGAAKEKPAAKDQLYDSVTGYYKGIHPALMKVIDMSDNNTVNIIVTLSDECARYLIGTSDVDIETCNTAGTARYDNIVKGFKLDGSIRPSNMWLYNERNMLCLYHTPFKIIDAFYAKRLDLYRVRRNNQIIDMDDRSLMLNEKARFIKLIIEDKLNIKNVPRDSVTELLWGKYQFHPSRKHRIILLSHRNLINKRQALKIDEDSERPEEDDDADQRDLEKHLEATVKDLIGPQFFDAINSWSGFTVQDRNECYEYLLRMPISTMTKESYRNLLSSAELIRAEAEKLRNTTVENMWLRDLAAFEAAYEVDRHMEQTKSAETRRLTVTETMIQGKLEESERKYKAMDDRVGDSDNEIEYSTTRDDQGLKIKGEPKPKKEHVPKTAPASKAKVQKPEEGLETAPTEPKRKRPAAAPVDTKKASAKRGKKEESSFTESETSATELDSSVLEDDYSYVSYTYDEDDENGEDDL
Experiment: EMSA
Conditions: EMSA: 0.02 pmol 5'-labeled probe, 5 ng protein, 20 ul, 0.5 ug poly(dI-dC), 15 min, room temperature, 6% acrylamide gel; salt and pH only by citation; recombinant protein; protein details: C-terminal V5-His; label: 5'-32P

Sequence: GGGGCAGGGGCCACAGCAGGGGACCCTCTA (double strand) [137620vsp-30/-1]
- binding result: binds
